Potato spindle tuber viroid, loop 6: variant abundance in plants

The pool varies loop 6 of the PSTVd intermediate strain in the pattern UNNNCGNNNG; wild type is UGACCGCGAG (upper and lower strand joined, each 5' to 3', the first 5 letters being the upper strand, closing pairs included).

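A pool of all variants was put on leaves of three Nicotiana benthamiana plants. Progeny were sequenced from the inoculated region (day 5), the margin of the inoculated leaf (day 10) and systemic leaves (day 12).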

Values are reads per thousand in the sample; higher means more abundant, 0 means not found.
Each value is the mean of three plants.
"Pool" is the share in the plasmid pool used as inoculum, on the same scale.
The inoculated region was read from the minus strand, the other sites from the plus strand.
IR is the inoculated region, LM the leaf margin, Sys the systemic leaves.
With 36,220-57,551 reads a sample, very low values are single reads.
Wild type was 20.7 per thousand in the pool and the most common sequence in every sample (inoculated region 195, 198, 203; leaf margin 629, 591, 734; systemic leaves 942, 870, 868).
Sequences that differ at fixed positions probably stem from PCR or sequencing errors, and defective variants can be carried along by functional ones.

{"sequence": "CGACCGUUCG", "pool": "0.0131", "IR": 0.0120, "LM": 0, "Sys": 0}
{"sequence": "UAAGCGAAUG", "pool": "0.235", "IR": 0.113, "LM": 0, "Sys": 0}
{"sequence": "UACCCGACCG", "pool": "0.144", "IR": 0.101, "LM": 0.00920, "Sys": 0}
{"sequence": "UACGCGUACG", "pool": "0.196", "IR": 0.0938, "LM": 0.0247, "Sys": 0}
{"sequence": "UACUCGCCCG", "pool": "0.235", "IR": 0.0838, "LM": 0, "Sys": 0}
{"sequence": "UACUCGGUGG", "pool": "0.327", "IR": 0.0655, "LM": 0, "Sys": 0}
{"sequence": "UAGACGACCG", "pool": "0.170", "IR": 0.0884, "LM": 0.00773, "Sys": 0}
{"sequence": "UAGCCGGCAG", "pool": "0.275", "IR": 0.0827, "LM": 0.0155, "Sys": 0}
{"sequence": "UAUGCGCCUG", "pool": "0.209", "IR": 0.107, "LM": 0.00773, "Sys": 0}
{"sequence": "UAUGCGUGCG", "pool": "0.170", "IR": 0.0654, "LM": 0.00920, "Sys": 0}
{"sequence": "UAUUCGUUUG", "pool": "0.471", "IR": 0.0889, "LM": 0.0169, "Sys": 0}
{"sequence": "UCAUCGCGCG", "pool": "0.170", "IR": 0.0949, "LM": 0, "Sys": 0}
{"sequence": "UCCGCGGCAG", "pool": "0.314", "IR": 0.0891, "LM": 0, "Sys": 0}
{"sequence": "UCUGCGUGGG", "pool": "0.157", "IR": 0.0951, "LM": 0, "Sys": 0}
{"sequence": "UGAACGUACG", "pool": "0.196", "IR": 0.145, "LM": 0.0261, "Sys": 0}
{"sequence": "UGAGCGAUGG", "pool": "0.248", "IR": 0.0953, "LM": 0.00773, "Sys": 0}
{"sequence": "UGCACGCUUG", "pool": "0.327", "IR": 0.0653, "LM": 0, "Sys": 0}
{"sequence": "UGGACGUAGG", "pool": "0.157", "IR": 0.0884, "LM": 0.00920, "Sys": 0}
{"sequence": "UGGCCGCCAG", "pool": "0.209", "IR": 0.585, "LM": 0.0668, "Sys": 0}
{"sequence": "UGUGCGCACG", "pool": "0.170", "IR": 0.0833, "LM": 0.00773, "Sys": 0}
{"sequence": "UUACCGACAG", "pool": "0.327", "IR": 0.144, "LM": 0, "Sys": 0}
{"sequence": "UUAGCGUACG", "pool": "0.248", "IR": 0.0659, "LM": 0, "Sys": 0}
{"sequence": "UUAGCGUUCG", "pool": "0.235", "IR": 0.0893, "LM": 0.0184, "Sys": 0}
{"sequence": "UUAUCGGAGG", "pool": "0.222", "IR": 0.0721, "LM": 0.00773, "Sys": 0}
{"sequence": "UUCACGCAUG", "pool": "0.353", "IR": 0.119, "LM": 0, "Sys": 0}
{"sequence": "UUCCCGAUUG", "pool": "0.261", "IR": 0.0949, "LM": 0.00773, "Sys": 0}
{"sequence": "UUCCCGUCAG", "pool": "0.209", "IR": 0.0954, "LM": 0, "Sys": 0}
{"sequence": "UUCGCGUUGG", "pool": "0.288", "IR": 0.0655, "LM": 0, "Sys": 0}
{"sequence": "UUGACGUUUG", "pool": "0.379", "IR": 0.120, "LM": 0.00920, "Sys": 0.00684}
{"sequence": "UUGGCGAGAG", "pool": "0.288", "IR": 0.0893, "LM": 0.00920, "Sys": 0}
{"sequence": "UUGGCGAUGG", "pool": "0.340", "IR": 0.0844, "LM": 0.0184, "Sys": 0.0136}
{"sequence": "UUUGCGGCCG", "pool": "0.144", "IR": 0.0954, "LM": 0.00920, "Sys": 0}
{"sequence": "UUUUCGUGAG", "pool": "0.327", "IR": 0.101, "LM": 0.00773, "Sys": 0}

A selection of 2 entries from above:

* UACUCGGUGG (pool 0.327) = IR 0.0655; LM 0; Sys 0
* UUCGCGUUGG (pool 0.288) = IR 0.0655; LM 0; Sys 0

Values reported by Wu et al. 2024 (doi:10.1371/journal.ppat.1012142).